Measured values from several laboratories, pooled; numbers as filed in NIAID ChemDB.

Shared fields: tests in culture; organism: HIV-1; measure: inhibition

Two numbers with a dash give a range or band. An empty or dashed field is not shown. Inhibition is in % at the dose shown (toxicity tests: loss of growth or viability). Neighbouring rows are from separate reports.

structure | strain or isolate | cells | method | conditions | tested at | value
Nc1ncnc2c1ncn2COCCOP(=O)(O)O[C@@H]1C[C@@H](COP(=O)(O)O[C@@H]2C[C@@H](COP(=O)(O)O[C@@H]3C[C@@H](CO)O[C@H]3n3cnc4c(NCc5ccccc5)ncnc43)O[C@H]2n2cnc3c(N)ncnc32)O[C@H]1n1cnc2c(N)ncnc21 | - | SupT1 + Sup-T1 | p24 | - | 100 µM | 51%
COC(=O)CCCNC(=O)[C@]12CCC(C)(C)C[C@H]1C1=CC[C@@H]3[C@@]4(C)C[C@@H](O)[C@H](O)C(C)(C)[C@@H]4CC[C@@]3(C)[C@]1(C)CC2 | pNL4-3 | MT-2 | p24 / ELISA | - | 25 µM | 88%
CC[C@H](CO)Nc1nc(NCc2ccc(-c3ccccc3)cc2)n2ncc(C(C)C)c2n1 | - | OM-10.1 | trypan blue | - | 0.05 µM | 1–5%
CCN(CC)CCCC(C)Nc1ccnc2cc(Cl)ccc12 | - | H9 | RT activity | - | 100 µM | 71.05%
CCCCCCCCCCCCCCCCOP(=O)(OC[C@H]1OC(O)[C@@H](O)[C@@H](O)[C@@H]1O)OC[C@H]1O[C@@H](n2cc(C)c(=O)[nH]c2=O)C[C@@H]1N=[N+]=[N-] | LAV-Bru | U-937 | RT activity | 14 d | 0.2 µM | 0%
OC[C@H]1O[C@@H](n2cnc3c(N4CC[C@@H](O)C4)ncnc32)C[C@H]1O | IIIB | CEM-SS | visual reading / cell fusion | - | 10 µM | 0%
CC(=O)CCC(=O)NCCCOCCOCCCNC(=O)CNC(=O)[C@H](CS)NC(=O)[C@@H](NC(=O)[C@@H](NC(=O)[C@H](CO)NC(=O)[C@@H](N)CS)C(C)C)[C@@H](C)O | IIIB | PBMC(PHA STIM.) + PBMC | p24 | - | 0.66 µM | 66%
CC(C)OC(=O)N1c2ccc3ccccc3c2C=CC1C#N | IIIB | MOLT-3 | syncytia | - | 50 µM | 0%
CC(C)[C@H](NC(=O)[C@H](CO)NC(=O)[C@H](CS)NC(=O)CCC(=O)NCCCOCCOCCCN)C(=O)N[C@H](C(=O)N[C@@H](CS)C(=O)NCC(=O)O)[C@@H](C)O | BaL | PBMC(PHA STIM.) + PBMC | p24 | - | 1.32 µM | 50%
COC(=O)CNC(=O)[C@]12CCC(C)(C)C[C@H]1C1=CC[C@@H]3[C@@]4(C)C[C@@H](O)[C@H](O)C(C)(C)[C@@H]4CC[C@@]3(C)[C@]1(C)CC2 | pNL4-3 | MT-2 | p24 / ELISA | - | 25 µM | 43.7%
CO[C@]1(C)OC[C@H]([C@@H]2CC(=O)C[C@H](c3ccccc3)C23C(=O)OC(C)(C)OC3=O)O[C@@]1(C)OC | NL4-3 | SupT1 | MTT | - | 10 µM | >50%
C[C@@H]1CN(C(=O)c2ccccn2)CCN1C(=O)C(=O)c1c[nH]c2cccc(F)c12 | - | HeLa + HELA CD4+/CCR5 | luciferase | - | 10 µM | >98%
Nc1ncnc2c1ncn2COCCOP(=O)([O-])O[C@@H]1[C@H](O)[C@@H](COP(=O)([O-])O[C@@H]2[C@H](O)[C@@H](COP(=O)([O-])O[C@@H]3[C@H](O)[C@@H](CO)O[C@H]3n3cnc4c(N)ncnc43)O[C@H]2n2cnc3c(N)ncnc32)O[C@H]1n1cnc2c(N)ncnc21 | - | SupT1 + Sup-T1 | RT activity | - | 300 µM | 72%
Cc1cn([C@H]2C[C@@H](O)[C@@H](CO)O2)c(=O)nc1N1C[C@H](O)[C@@H](O)C1 | IIIB | CEM-SS | XTT / cell fusion | - | 10 µM | 7.9%
C[C@@H]1CN(C(=O)c2ccccc2)CCN1C(=O)C(=O)c1c[nH]c2c(C(=O)O)cccc12 | - | HeLa + HELA CD4+/CCR5 | luciferase | - | 10 µM | >98%
CC(C)C[C@H](NC(=O)[C@@H](O)[C@H](N)Cc1ccccc1)C(=O)O | IIIB | HuT-78 + HUT 78 | syncytia | - | 120 µg/mL | 89%
OC[C@H]1O[C@@H](n2cnc3c(N4CCC(F)(F)C4)ncnc32)C[C@H]1O | IIIB | CEM-SS | XTT / cell fusion | - | 10 µM | 0%
NS(=O)(=O)c1ccc(NC(=O)c2ccccc2SSc2ccccc2C(=O)Nc2ccc(S(N)(=O)=O)cc2)cc1 | NL4-3 | HeLa P4 + HeLa | virus yield | - | 1 µM | 75%
C[C@@H]1CN(C(=O)c2ccccc2)CCN1C(=O)C(=O)c1c[nH]c2c(C(=O)O)ccc(F)c12 | - | HeLa + HELA CD4+/CCR5 | luciferase | - | 10 µM | >98%
O=S(=O)(O)c1ccc(-c2c3nc(c(-c4ccc(S(=O)(=O)O)cc4)c4ccc([n-]4)c(-c4ccc(S(=O)(=O)O)cc4)c4nc(c(-c5ccc(S(=O)(=O)O)cc5)c5ccc2[n-]5)C=C4)C=C3)cc1.[Gd+3] | IIIB | MAGI | β-galactosidase | - | 50 µg/mL | 69%
COC(=O)c1cccc2c(C(=O)C(=O)N3CCN(C(=O)c4ccccc4)C(C)C3)c[nH]c12 | - | HeLa + HELA CD4+/CCR5 | luciferase | - | 10 µM | >98%
CC1(C)CC[C@]2(C(=O)NCCCC(=O)NCC(=O)O)CC[C@]3(C)C(=CC[C@@H]4[C@@]5(C)C[C@@H](O)[C@H](O)C(C)(C)[C@@H]5CC[C@]43C)[C@@H]2C1 | pNL4-3 | MT-2 | p24 / ELISA | - | 25 µM | -43.3%
CC(C)COC(=O)N1c2ccc3ccccc3c2C=CC1C#N | IIIB | MOLT-3 | syncytia | - | 50 µM | 37.5%
Cc1ccc(-c2ccc3c(c2)C=C(C(=O)Nc2ccc(C[N+](C)(C)C4CCOCC4)cc2)CCC3)cc1 | CM1 CLADE C | PBMC | p24 | - | 1 µM | 95.5%
C[C@H](NC(=O)CCCCCNC(=O)[C@]12CCC(C)(C)C[C@H]1C1=CC[C@@H]3[C@@]4(C)C[C@@H](O)[C@H](O)C(C)(C)[C@@H]4CC[C@@]3(C)[C@]1(C)CC2)C(=O)NCC(=O)O | pNL4-3 | MT-2 | p24 / ELISA | - | 25 µM | 10.4%
CCOC(=O)N1c2ccc3ccccc3c2C=CC1C#N | IIIB | MOLT-3 | syncytia | - | 50 µM | 73.7%
C[C@H](NC(=O)CCCNC(=O)[C@]12CCC(C)(C)C[C@H]1C1=CC[C@@H]3[C@@]4(C)C[C@@H](O)[C@H](O)C(C)(C)[C@@H]4CC[C@@]3(C)[C@]1(C)CC2)C(=O)O | pNL4-3 | MT-2 | p24 / ELISA | - | 10 µM | 16.3%
CCOC(=O)/C=C/c1ccc(OC(=O)CCC(=O)Oc2c(C)c(C)c3c(c2C)CC[C@@](C)(CCC[C@H](C)CCC[C@H](C)CCCC(C)C)O3)cc1 | - | U1/HIV-1 (TNF-alpha stimulated) + U1 | - | - | 5 µM | 41%
CC1(C)CC[C@]2(C(=O)NCCCCCCCCCCC(=O)O)CC[C@]3(C)C(=CC[C@@H]4[C@@]5(C)C[C@@H](O)[C@H](O)C(C)(C)[C@@H]5CC[C@]43C)[C@@H]2C1 | pNL4-3 | MT-2 | p24 / ELISA | - | 25 µM | 78.5%
O=S(=O)(O)c1ccc(-c2c3nc(c(-c4ccc(S(=O)(=O)O)cc4)c4ccc([nH]4)c(-c4ccc(S(=O)(=O)O)cc4)c4nc(c(-c5ccc(S(=O)(=O)O)cc5)c5ccc2[nH]5)C=C4)C=C3)cc1 | IIIB | MAGI | β-galactosidase | - | 50 µg/mL | 93%
Nc1ccn([C@H]2CC[C@@H](CO)O2)c(=O)n1 | LAV | MT-2 | RT activity | - | 0.01 µM | 37%
N#CC1C=Cc2c(ccc3ccccc23)N1C(=O)Sc1ccc(Cl)cc1 | IIIB | MOLT-3 | syncytia | - | 50 µM | 0%
Nc1ccnc(N2CCC[C@H]2CO)n1 | IIIB | CEM-SS | visual reading / cell fusion | - | 10 µM | 0%
CC(C)[C@H](NC(=O)[C@H](Cc1ccccc1)C[C@H](O)[C@H](Cc1ccccc1)NC(=O)OC(C)(C)C)C(=O)N[C@@H](Cc1ccccc1)C(=O)N1CCOCC1 | LAV | PBL | RT activity | - | 0.1 µM | 95%
O=C(C(=O)N1CCN(C(=O)c2ccccc2O)CC1)c1c[nH]c2ccccc12 | BRU | MT-2 | RT activity | - | 10 µM | 88%
Cc1cn([C@H]2C[C@H](N=[N+]=[N-])[C@@H](COP(=O)(O)OCCO[C@H]3O[C@H](CO)[C@@H](O)[C@H](O)[C@@H]3O)O2)c(=O)[nH]c1=O | LAV-Bru | CEM | RT activity | 22 d | 0.2 µM | 0%
CC1CN(C(=O)c2ccccc2)CC(C)N1C(=O)C(=O)c1c[nH]c2cccc(F)c12 | - | HeLa + HELA CD4+/CCR5 | luciferase | - | 10 µM | >98%
CC1(C)[C@@H](O[C@H]2O[C@H](C(=O)O)[C@@H](O)[C@H](O)[C@H]2O[C@@H]2O[C@H](C(=O)O)[C@@H](O)[C@H](O)[C@H]2O)CC[C@]2(C)[C@H]3C(=O)C=C4[C@@H]5C[C@@](C)(C(=O)O)CC[C@]5(C)CC[C@@]4(C)[C@]3(C)CC[C@@H]12 | IIIB | MOLT-4 | cytopathic effect | 6 d | 1200 µM | 5.7%
C[C@H]1CN(C(=O)c2ccccc2)CCN1C(=O)C(=O)c1c[nH]c2cccc(Cl)c12 | - | HeLa + HELA CD4+/CCR5 | luciferase | - | 10 µM | 79%
COC(=O)N1C=CC=C(C(C)=O)C1C#N | IIIB | MOLT-3 | syncytia | - | 50 µM | 0%
O=C(C(=O)N1CCN(C(=O)c2ccccc2)CC1)c1c[nH]c2cc(F)c(F)cc12 | - | HeLa + HELA CD4+/CCR5 | luciferase | - | 10 µM | 63%
Nc1ncnc2c1ncn2COCCOP(=O)(O)O | - | SupT1 + Sup-T1 | RT activity | - | 300 µM | 45%